Compound potency records, mixed from different reports. Data source: NIAID ChemDB in PubChem.

Common to all: toxicity to cultured cells; cell line: Huh7; endpoint: CC50

CCn is the concentration with n% toxicity to the cells. a–b is a range or a potency band. An empty or dashed field is not shown. Neighbouring rows are from separate reports.

smiles	read by	result
N[C@@H](C(=O)N1CCC[C@H]1C(=O)Nc1ccc(C#Cc2ccc(NC(=O)[C@@H]3CCCN3C(=O)[C@H](N)c3ccccc3)cc2)cc1)c1ccccc1	resazurin	9.8 µM
COc1ccc([C@@H]2Oc3ccc([C@H]4Oc5cc(O)cc(O)c5C(=O)[C@@H]4O)cc3O[C@H]2CO)cc1O	absorbance	168 µM
CC(C)C(=O)Nc1ccc(-c2cnc3nc(N)nc(N4CCOCC4)c3n2)cc1		10–20 µM
CCOc1nc(N)nc2ccc(-c3ccc(NC(=O)C4(N)CC4)cc3)nc12		>20 µM
C[C@@]1(O)[C@H](O)[C@@H](CO)O[C@H]1c1ccc2c(=O)[nH]c(N)nn12	MTT	>100 µM
COc1ccc(Nc2s[nH]c(=O)c2C#N)cc1		>50 µM
COc1ccc(-c2cnc3nc(N)nc(N4CCN(C(=O)Nc5cccc(C(F)(F)F)c5)CC4)c3n2)cc1OC	ATP	<10 µM
COc1cc(Cc2cnc(/N=C3\C(=O)N(CN4CCN(c5ccc(Cl)cc5)CC4)c4ccc(F)cc43)nc2N)cc(OC)c1OC		<50 µg/mL
CC1CCC(C(=O)N(c2cc(-c3ccccc3)sc2C(=O)O)C(C)C)C(O)C1		131 µM
O=C(Nc1ccc(/C=C/c2ccc(NC(=O)[C@@H]3CCCN3C(=O)c3nccc4ccccc34)cc2)cc1)[C@@H]1CCCN1C(=O)c1nccc2ccccc12	resazurin	>10 µM
COc1cc(C2Oc3c(O)cc([C@H]4Oc5cc(O)cc(O)c5C(=O)[C@@H]4O)cc3[C@H]2CO)ccc1O	absorbance	>200 µM
CC(C)(CN1CCOCC1)NC(=O)c1ccc(-c2ccc3nc(N)nc(O[C@H]4CCOC4)c3n2)cc1		10–20 µM
O=C(O[C@@H]1Cc2c(O)cc(O)cc2O[C@@H]1c1cc(O)c(O)c(O)c1)c1ccc(F)c(F)c1	MTS	>1000 µM
C[C@@]1(O)[C@H](O)[C@@H](CO)O[C@H]1c1ccc2c(N)ncnn12	MTT	>100 µM
CCN(CC)CN1C(=O)/C(=N\c2ncc(Cc3cc(OC)c(OC)c(OC)c3)c(N)n2)c2cc(F)ccc21		<50 µg/mL
C=C1C(=O)O[C@@H]2[C@H]1CC[C@H](COC(=O)C=C(C)C)[C@]1(O)CCC(=O)[C@@]21C		>2 µM
CN(C)[C@H](C(=O)N1CCC[C@H]1C(=O)Nc1ccc(C#Cc2ccc(NC(=O)[C@@H]3CCCN3C(=O)[C@H](c3ccccc3)N(C)C)cc2)cc1)c1ccccc1	resazurin	2.3 µM
Nc1ccn([C@@H]2C[C@H](CO)[C@@H](O)[C@]2(O)CO)c(=O)n1		20 µg/mL
CC(C)Oc1nc(N)nc2ccc(-c3ccc(C(=O)NC4CC4)cc3)nc12		>20 µM
CC(=O)Nc1ccc(Sc2ccc(C)cc2Nc2ncnc3nc(CC(C)C)ccc23)cc1	MTT	38.5 µM
C=C1C(=O)O[C@@H]2[C@H]1CC[C@H](COC(=O)C(C)CC)[C@]1(O)CCC(=O)[C@@]21C		>2 µM
CC(C)(C)C(=O)OCOP(=O)(CC[C@H]1O[C@@H](n2cnc3c(N)ncnc32)[C@](C)(F)[C@@H]1O)OCOC(=O)C(C)(C)C	absorbance	>10 µM
Nc1ncnc2c1c(C#Cc1cccc(-c3ccccn3)n1)cn2[C@H]1C[C@H](O)[C@@H](CO)O1		>100 µM
CCCc1ccc2c(Nc3cc(C)ccc3Sc3ccc(NC(C)=O)cc3)ncnc2n1	MTT	>25 µM
COc1cc(Cc2cnc(/N=C3\C(=O)N(CN4CCN(c5cccc(Cl)c5)CC4)c4ccc(F)cc43)nc2N)cc(OC)c1OC		<50 µg/mL
CC(=O)N[C@@H](C(=O)N1CCC[C@H]1C(=O)Nc1ccc(C#Cc2ccc(NC(=O)[C@@H]3CCCN3C(=O)[C@H](NC(C)=O)c3ccccc3)cc2)cc1)c1ccccc1	resazurin	>10 µM
C=CC1C[C@]1(NC(=O)C1C[C@@H](Oc2cc(-c3ccccc3)nc3ccccc23)CN1C(=O)[C@@H](NC(=O)[C@@H](NC(=O)[C@@H](CCC(=O)O)NC(=O)[C@H](CC(=O)O)NC(C)=O)C1CCCCC1)C(C)(C)C)C(=O)O		>400 µM
Cc1ccc(Sc2ccccc2)c(Nc2ncnc3nc(C(C)C)ccc23)c1	MTT	8 µM
Nc1nc(N2CCOCC2)c2nc(-c3cc4ccccc4o3)cnc2n1		>20 µM
N#Cc1c(NCCc2ccc(O)cc2)s[nH]c1=O		>50 µM
Nc1nc(O[C@@H]2CCOC2)c2nc(-c3ccc(N4CCCC4=O)cc3)ccc2n1		>20 µM
COc1ccc(-c2cnc3nc(N)nc(N4CCN(Cc5cccc(C)c5)CC4)c3n2)cc1OC	ATP	10–20 µM
CC(C)(C)C(=O)OCOP(=O)(CC[C@H]1O[C@@H](n2ccc(N)nc2=O)[C@](C)(F)[C@@H]1O)OCOC(=O)C(C)(C)C	absorbance	>10 µM
CCn1cc(C(=O)O)c(=O)c2cc(F)c(N3CCN(CN4C(=O)/C(=N\c5ncc(Cc6cc(OC)c(OC)c(OC)c6)c(N)n5)c5cc(F)ccc54)C(C)C3)c(F)c21		<50 µg/mL
N#Cc1c(Nc2ccc(Br)cc2)s[nH]c1=O		>50 µM
COc1ccc(-c2cnc3nc(N)nc(N4CCN(Cc5ccncc5)CC4)c3n2)cc1OC	ATP	10–20 µM
CN(C)[C@](C)(C(=O)N1CCC[C@H]1C(=O)Nc1ccc(C#Cc2ccc(NC(=O)[C@@H]3CCCN3C(=O)[C@](C)(c3ccccc3)N(C)C)cc2)cc1)c1ccccc1	resazurin	2.13 µM
COc1ccc2c(c1)[C@@H]1C[C@]1(C(=O)N1[C@@H]3CC[C@H]1CN(C)C3)Cn1c-2c(C2CCCCC2)c2ccc(C(=O)NS(=O)(=O)N(C)C)cc21	resazurin	20 µM
O=C(Nc1ccc(C#Cc2ccc(NC(=O)[C@@H]3CCCN3C(=O)[C@@H](c3ccccc3)N3CCOCC3)cc2)cc1)[C@@H]1CCCN1C(=O)[C@@H](c1ccccc1)N1CCOCC1	resazurin	>10 µM
C=C1C(=O)O[C@@H]2[C@H]1CC[C@H](COC(=O)CCC)[C@]1(O)CCC(=O)[C@@]21C		>2 µM
N#Cc1c(Nc2ccc(S(=O)(=O)Nc3ccccc3)cc2)s[nH]c1=O		>50 µM
CCCCNC(=O)c1ccc(-c2ccc3nc(N)nc(OC(C)C)c3n2)cc1		>20 µM
N#Cc1c(Nc2ccc(C(=O)c3ccccc3)cc2)s[nH]c1=O		>50 µM
CC(=O)N1CCN(C(C(=O)N2CCC[C@H]2C(=O)Nc2ccc(C#Cc3ccc(NC(=O)[C@@H]4CCCN4C(=O)C(c4ccccc4)N4CCN(C(C)=O)CC4)cc3)cc2)c2ccccc2)CC1	resazurin	>10 µM
Cc1ccc(Sc2ccc(O)cc2)c(Nc2ncnc3nc(Oc4ccccc4)ncc23)c1	MTT	17.1 µM
Nc1ncnc2c1c(C#Cc1ccc(-c3ccccn3)nc1)cn2[C@H]1C[C@H](O)[C@@H](CO)O1		2 µM
CC(C)(N)C(=O)Nc1ccc(-c2ccc3nc(N)nc(O[C@@H]4CCOC4)c3n2)cc1F		>20 µM
NS(=O)(=O)c1ccc(CNc2nc(NCC(F)(F)F)c3nc(-c4ccc(C(=O)NC5CC5)cc4)cnc3n2)cc1	ATP	>20 µM
CCO[C@H]1C(C)=CN(c2ccc([N+](=O)[O-])cc2)[C@H](c2ccc(Cl)cc2)[C@@H]1C	MTT	>100 µM
CC(C)(CN1CCCC1)NC(=O)c1ccc(-c2ccc3nc(N)nc(O[C@H]4CCOC4)c3n2)cc1		>20 µM
COC(=O)N[C@@H](C(=O)N1CCC[C@H]1C(=O)Nc1ccc(C#Cc2ccc(NC(=O)[C@@H]3CCCN3C(=O)[C@H](NC(=O)OC)c3ccccc3)cc2)cc1)c1ccccc1	resazurin	>10 µM
CCCOc1nc(N)nc2ncc(-c3ccc(F)cc3)nc12		>20 µM
N#Cc1c(Nc2ccc(I)cc2)s[nH]c1=O		>50 µM
COc1cc(Cc2cnc(/N=C3\C(=O)N(CN4CCCC4)c4ccc(F)cc43)nc2N)cc(OC)c1OC		<50 µg/mL
COc1nc(N)nc2ncc(-c3ccc(F)cc3)nc12		>20 µM
COCCOc1nc(N)nc2ccc(-c3ccc(C(=O)NC4CC4)cc3)nc12		>20 µM
Nc1nc(OCC2CC2)c2nc(-c3ccc(F)cc3)cnc2n1		>20 µM
CN(C)[C@H](Cc1ccccc1)C(=O)N1CCC[C@H]1C(=O)Nc1ccc(C#Cc2ccc(NC(=O)[C@@H]3CCCN3C(=O)[C@@H](Cc3ccccc3)N(C)C)cc2)cc1	resazurin	>10 µM
CCN(CC)C(=O)N1CCN(c2nc(N)nc3ncc(-c4ccc(OC)c(OC)c4)nc23)CC1	ATP	>20 µM
CC(C)N1CCC(NC(=O)c2ccc(-c3ccc4nc(N)nc(O[C@H]5CCOC5)c4n3)cc2)CC1		>20 µM
COC(=O)C(C)(C)NP(=O)(OC[C@H]1O[C@@H](c2cnc3c(=O)[nH]c(N)nn23)[C@](C)(O)[C@@H]1O)Oc1cccc2ccccc12	MTT	>100 µM

The first 8 rows once more:

smiles,read by,result
N[C@@H](C(=O)N1CCC[C@H]1C(=O)Nc1ccc(C#Cc2ccc(NC(=O)[C@@H]3CCCN3C(=O)[C@H](N)c3ccccc3)cc2)cc1)c1ccccc1,resazurin,9.8 µM
COc1ccc([C@@H]2Oc3ccc([C@H]4Oc5cc(O)cc(O)c5C(=O)[C@@H]4O)cc3O[C@H]2CO)cc1O,absorbance,168 µM
CC(C)C(=O)Nc1ccc(-c2cnc3nc(N)nc(N4CCOCC4)c3n2)cc1,,10–20 µM
CCOc1nc(N)nc2ccc(-c3ccc(NC(=O)C4(N)CC4)cc3)nc12,,>20 µM
C[C@@]1(O)[C@H](O)[C@@H](CO)O[C@H]1c1ccc2c(=O)[nH]c(N)nn12,MTT,>100 µM
COc1ccc(Nc2s[nH]c(=O)c2C#N)cc1,,>50 µM
COc1ccc(-c2cnc3nc(N)nc(N4CCN(C(=O)Nc5cccc(C(F)(F)F)c5)CC4)c3n2)cc1OC,ATP,<10 µM
COc1cc(Cc2cnc(/N=C3\C(=O)N(CN4CCN(c5ccc(Cl)cc5)CC4)c4ccc(F)cc43)nc2N)cc(OC)c1OC,,<50 µg/mL